Measured values published in article PMC8989888, “Development of optimized drug-like small molecule inhibitors of the SARS-CoV-2 3CL protease for treatment of COVID-19” (Nature Communications, 2022).

Legend:
SARS-CoV-2 3CL protease [1] = target: T1, SARS-CoV-2 3CL protease (Severe acute respiratory syndrome coronavirus 2, UniProt P0DTD1); test: SARS-CoV-2 3CL protease inhibition, fluorogenic peptide substrate; format: biochemical
SARS-CoV-2 3CL protease [2] = target: T1, SARS-CoV-2 3CL protease; test: Mass spectrometry analysis of protein-inhibitor complex; format: binding
human chymotrypsin = test: Chymotrypsin activity assay (Panc-1 cell lysate); conditions: 10µM inhibitor; DMSO about 1, no lysate (negative control) 0; three replicates
SARS-CoV-2 = SARS-CoV-2 viral inhibition in Huh-7ACE2 cells; conditions: read-out: SARS-CoV-2 Huh-7ACE2 EC50; Huh-7ACE2, 24 h, MOI 0.05
[3] = read-out: SARS-CoV-2 3CLpro IC50, 20 nM protease

Compound | IC50 (SARS-CoV-2 3CL protease [1]; [3]) [nM] | binding to 3CL protease by mass spectrometry (in words) (SARS-CoV-2 3CL protease [2]) | Protease activity in cell lysate normalised to DMSO (Figure S22D) (human chymotrypsin) | EC50 (SARS-CoV-2) [nM] | Normalized SARS-CoV-2 3CL protease activity (SARS-CoV-2 3CL protease [1]; 0.2 µM protease with 50 µM tested compound, replicates, listed as AZVIII 34D) | IC50 (SARS-CoV-2 3CL protease [1]; 200 nM protease) [nM] | Protease activity (normalized) (SARS-CoV-2 3CL protease [1]; 200 nM protease, log10[nM] 1.35912, replicates) | Protease activity (normalized) (SARS-CoV-2 3CL protease [1]; 200 nM protease, log10[nM] 2.79048, replicates) | Protease activity (normalized) (SARS-CoV-2 3CL protease [1]; 200 nM protease, log10[nM] 4.22185, replicates)
CC(C)C[C@H](NC(=O)OCc1cccc(Cl)c1)C(=O)N[C@H](C=O)C[C@@H]1CCNC1=O | 9 | blocked covalent binding of 10 equivalents of compound 4 | 0.933 and 0.8892 and 0.9601 | 26 |  |  |  |  | 
CC(C)C[C@H](NC(=O)OCc1ccccc1Cl)C(=O)N[C@H](C=O)C[C@@H]1CCNC1=O | 10 | blocked covalent binding of 10 equivalents of compound 4 | 0.9365 and 0.8801 and 0.9265 | 8 |  |  |  |  | 
CCOC(=O)C=CC(CC1CCNC1=O)NC(=O)C(CC(C)C)NC(=O)C(NC(=O)OCc1ccccc1)C(C)OC(C)(C)C (stereo not shown) [compound 4] |  |  |  |  | 0.01471 and 0.01456 and 0.005221 | 9700 | 0.8103 and 0.7555 and 0.5396 | 0.5696 and 1.044 and 0.8978 | 0.1536 and 0.09865 and 0.08845

Values joined by “and” are separate entries in the source; they are usually repeats but may differ in a detail not shown here. Equal values may be shown once. Read-outs that look alike come from different tables or passages of the source.
